Target: Bacillus anthracis protective antigen (PA) (Bacillus anthracis) (UniProt P13423)

Substance: NlpA-[Dig scFv] (26-10 anti-digoxin/digoxigenin scFv fused to the NlpA anchor) (from UniProt P04846 24-29)
- M (mean fluorescence): 2.97
